The supplement of paper PMC9931576
Changes are numbered by the printed parent chain. Human monoclonal antibodies against the spike receptor-binding domain (heavy:light variable regions). IC50 against pseudoviruses bearing the spike of naturally observed variants; lower = stronger; >10 µg/ml means not reached at the top dose. No active / inactive call. The stated detection limit is 0.0005 µg/ml; values near or below 0.001 µg/ml lie at the floor of the assay.

B1: BD56-094 (protein)
chain 1: EVQLVESGGDLVKPGRSLRLSCTASGFTFGDNAVSWFRQAPGKGLEWVGFIRSKPYGGTTEYAASVKGRFTISRDDSKSIAYLQMNSLKTEDTAVYYCTRDRTTYYDVLTGYSIDHHGMDVWGQGTTVTVSS
chain 2: DIVMTQTPLSLSVTPGQPASISCKSSQSLLHIDGKTYLYWFLQKPGQPPQFLIYEVSNRFSGVPDRFSGSGSGTDFTLKISRVEAHDVGLYYCMQSKQPPHTFGQGTKLEIK
B2: BD56-076 (protein)
chain 1: QVQLVQSGAEVKKPGSSVKVSCKSSGSTFSSYGHNWVRQAPGQGLEWMGRIIPILNIVNYAQKFQGRVTITADISTNTAYMELGSLRYEDTAVYYCARPADYGDTLGSPNWEFDRAFDIWGQGTMVTVS
chain 2: EIVLTQSPGTLSLSPGERATLSCRASQSVTSSYLAWYQQKPGQAPRLLIYGASSRATGVPDRFSGSGSGTDFTLTISRLEPGDFAVYYCQQLVGSPWTFGQGTKVESK
B3: BD56-086 (protein)
chain 1: EVKLLESGGGLVQPGGSLRLSCAASGFTFSSYALNWVRQAPGKGLEWVSGIGGSGDLAFYADSVKGRFTISRDNSKNTLYLQMNNLRAEDTAVYYCAKDQGGVRYDLLDYWGQGTLVSVSS
chain 2: DVQMTQSPSSLSASVGDRVTISCRASQSISRYLNWYQQKPGKAPKLLIFGASSLQSGVPSRFSGSGSGTDFTLTISSLQPEDFATYYCQQSYITPPLTFGGGTKVEIK
B4: BD56-083 (protein)
chain 1: QVQMVQSGVEVKRPGASVKVSCRASGYTFTTYGVTWVRQAPGQGLEWMGWISAYNGNTKYAQKFQARVTMTTDSSTSTAHLEVRSLTSDDTAVYYCARWFGELSEPFDYWGQGTLVTVSS
chain 2: DIQLTQSPSSLSASVGDRVTITCRSSQSISRWVNWYQQKPGKAPKLLIYGASSLQSGVPSRFSGSGSGTDFTLTISSLQADDFATYFCQLSDNFVVTFGQGTRLEIK
B5: BD56-081 (protein)
chain 1: QITLKESGPTLVKPTQTLTLTCSFSGVSLSTRGMGVGWIRQPPGKALEWLALIYWDDDKRYSPSLKSRLSITKDTSKNQVVLTMTNVDRVDTATYYCAHWNYGDYEGSFDYWGQGTLVTVSS
chain 2: SYELTQPPSVSVSPGQTARITCSGDALPKQYAYWYQQKPGQAPLLVIYKDTERPSGIPERFSGSSSGPTVSLTISGVQAEDEADYYCQSADSSYVVFGGGTKLTVL
B6: BD56-098 (protein)
chain 1: QVQLQQWGAGLVKPSETLSLTCAVYGGSLSGYYWSWIRQSPGKGLEWIGEINDSGSTNYNPSLKSRVTISVGTSKNHFSLKLSSVTAADTAVYYCAREVHYDTLTGQPLPGSFDAFDIWGQGTMVTVSS
chain 2: QSVLTQPPSASGTPGQRVTISCSGSSSNIGINSVNWYQQFPGTAPKLLIYSNDQRPSGVPGRFSGSKSGTSASLAISGLQSEDEADYYCAAWDESLNGVVFGGGTKLTVL
B7: BD56-077 (protein)
chain 1: QVQLVQSGAEVKKPGSAVKVSCKASGGTSSTSAISWVRQATGQGLEWMGRIIPILGIADYAQRFQGRVTITADKSTSTVYMDLSSLRSEDTAFYYCARDLVDYGSGSYPLYFDSWGQGTLVTVSS
chain 2: DIVMTQSPDSLAVSLGERATISCKSSQSLLYSANNKNYLAWYQQKPGQPPKLLIYWASTRESGVPDRFSGSGSGTDFTLTISSLQAEDVAVYYCQQHYNTITFGPGTKVNIK
B8: BD56-097 (protein)
chain 1: QVQLVESGGGVVQPGRSLRLSCAVSGFTFSNYSMHWVRQAPGKGLEWVAVILDDGSFKNYVDSVKGRFSISRDNSRKTVYLQMNSLRVEDTAVYYCARDYGVTTTYFDYWGQGTLVTVSS
chain 2: DIQMTQSPSSLSASVGDRVTISCRASQSIRSDLNWYQRQPGKAPKLLIYVASNLQNGVPSRFSGSGSGTDFTLTISNLQPEDFATYYCQQSYSTPPWTFGQGTTVEIK
B9: BD56-090 (protein)
chain 1: EVQLVESGGGLVQPGRSLRLSCAASGFTFDDYAIHWVRQAPGKGLEWVSGVSWNSGIIGYADSVKGRFTISRDNAKNSLYLQMNSLRPEDTALYYCAKDMGGDYSFRKYNYGLDVWGQGTTVIVS
chain 2: QSVVTQPPSASGTPGQRVTISCSGSNSNIGTKAVNWYQQLPGTAPKLVIYSNNQRPSGVPDRFSGSKSGTSASLAISGLQSEDEADYYCAAWDDSLDGYVFGTGTKVTVL
B10: BD56-054 (protein)
chain 1: EVQLVESGGGFVQPGRSLRLSCVASGFTFDEYAIHWVRQAPGKGLEWVSGVSSNSATIGYADSVKGRFIISRDNAKNSLYLHMNSLRAEDTAFYYCAKDMNAEGPGSSYYHYYGMDVWGHGTTVTVSS
chain 2: QSVLTQPPSASGTPGQRVTISCSGSSSNIGGNTVNWYQQLPGTAPKLLIYSNNQRPSGVPDRFSGSKSGTSASLAISGLQSEDESDYYCAAWDDSLNGQYVFGTGTKVTVL
B11: BD56-055 (protein)
chain 1: EVQLVESGGGLVQPGRSLRLSCAASGLTFDDYAIHWVRQAPGKGLEWVSGVSSNSATIGYADSVKGRFIISRDNPKNSVFLQMNRLRAEDTAIYYCAKDMNGEGPGSSHYNYYGMDVWGQGTTVTVSS
chain 2: B10 chain 2 with G31S, N53D, S85T, Q99H
B12: BD56-074 (protein)
chain 1: EVQLVESGGGLVQPGRSLTLSCAASGFTFDDYAIHWVRQRPGKGLEWVSGISWNGGTIGYVDSVKGRFIISRDNAKNSLYLHMRSLRVEDTALYFCAKAKTRGDSDWPFDTWGQGSLVTVSS
chain 2: SYVLTQPPSVSVAPGKTARITCGGGNIGSKSVHWYQQKPGQAPVLVVFDDSDRPSGIPDRFSGSKSGNTATLTISRVEAGDEADFYCQVWDSSSDLWVFGGGTKVTIL

Each binder was assayed against SARS-CoV-2 Omicron BA.1 spike pseudovirus (assay: pseudovirus neutralization IC50; higher = weaker neutralization).
Method: (§1)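 Single-round VSV luciferase pseudovirus mixed with antibody dilutions for 1 h and put on Huh-7 cells for about a day; IC50 from the dose curve.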

Binder	pseudovirus neutralization IC50
B1	> 10 µg/mL
B2	0.001 µg/mL
B3	> 10 µg/mL
B4	0.657 µg/mL
B5	> 10 µg/mL
B6	0.0825 µg/mL
B7	0.0199 µg/mL
B8	> 10 µg/mL
B9	0.0552 µg/mL
B10	0.0531 µg/mL
B11	0.263 µg/mL
B12	0.0231 µg/mL

Each binder was assayed against SARS-CoV-2 Omicron BA.2 spike pseudovirus in the same assay as above.
Method: as §1

Binder	pseudovirus neutralization IC50
B1	> 10 µg/mL
B2	0.000642 µg/mL
B3	> 10 µg/mL
B4	0.563 µg/mL
B5	> 10 µg/mL
B6	0.0575 µg/mL
B7	0.0164 µg/mL
B8	> 10 µg/mL
B9	0.0799 µg/mL
B10	0.0543 µg/mL
B11	0.206 µg/mL
B12	0.0178 µg/mL

These binders were tested against SARS-CoV-2 Omicron BA.2.75 spike pseudovirus in the same assay as above.
Method: as §1

Binder	pseudovirus neutralization IC50
B1	> 10 µg/mL
B2	0.000905 µg/mL
B3	> 10 µg/mL
B4	0.554 µg/mL
B5	> 10 µg/mL
B6	0.0532 µg/mL
B7	0.0174 µg/mL
B8	> 10 µg/mL
B9	0.0474 µg/mL
B10	0.0578 µg/mL
B11	0.173 µg/mL
B12	0.0141 µg/mL

These binders were tested against SARS-CoV-2 Omicron BA.5 spike pseudovirus in the same assay as above.
Method: as §1

Binder	pseudovirus neutralization IC50
B1	> 10 µg/mL
B2	4.64 µg/mL
B3	> 10 µg/mL
B4	> 10 µg/mL
B5	> 10 µg/mL
B6	> 10 µg/mL
B7	> 10 µg/mL
B8	> 10 µg/mL
B9	> 10 µg/mL
B10	4.81 µg/mL
B11	> 10 µg/mL
B12	0.0447 µg/mL

What follows are binders tested against SARS-CoV-2 Omicron BQ.1.1 spike pseudovirus in the same assay as above.
Method: as §1

Binder	pseudovirus neutralization IC50
B1	> 10 µg/mL
B2	> 10 µg/mL
B3	> 10 µg/mL
B4	> 10 µg/mL
B5	> 10 µg/mL
B6	> 10 µg/mL
B7	> 10 µg/mL
B8	> 10 µg/mL
B9	> 10 µg/mL
B10	> 10 µg/mL
B11	> 10 µg/mL
B12	> 10 µg/mL

Each binder was assayed against SARS-CoV-2 Omicron XBB spike pseudovirus in the same assay as above.
Method: as §1

Binder	pseudovirus neutralization IC50
B1	> 10 µg/mL
B2	0.0119 µg/mL
B3	> 10 µg/mL
B4	> 10 µg/mL
B5	> 10 µg/mL
B6	> 10 µg/mL
B7	> 10 µg/mL
B8	> 10 µg/mL
B9	4.62 µg/mL
B10	> 10 µg/mL
B11	> 10 µg/mL
B12	> 10 µg/mL

Each binder was assayed against SARS-CoV-2 early D614G spike pseudovirus in the same assay as above.
Method: as §1

Binder	pseudovirus neutralization IC50
B1	> 10 µg/mL
B2	0.001 µg/mL
B3	> 10 µg/mL
B4	0.409 µg/mL
B5	> 10 µg/mL
B6	0.0257 µg/mL
B7	0.00656 µg/mL
B8	> 10 µg/mL
B9	0.0294 µg/mL
B10	0.0163 µg/mL
B11	0.0513 µg/mL
B12	0.0225 µg/mL
